PubChem BioAssay AID504761 – Drosophila RNAi Screening Center – 2011
The screen tested about 22,000 reagents; this is an unselected part of those that have a named target and a result. Of all reagents, 116 (0.52%) were called active. 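Calls depend on retest data that are not deposited; infection was ranked per plate without normalising between plates; the unit of the infection score is not given.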 Unmarked entries are inactive. Not all columns of the deposit are shown. Not given: the amount of reagent, the time to read-out.

Assay: 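Genome-wide fly cell screen for genes dengue virus requires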 (primary screen)
System: D.Mel-2 cells from Drosophila
Reagent: long dsRNA against Drosophila genes
Treatment: infection with dengue virus type 2; dose and infection time not stated
Read-out: 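Per well on two replicate plates, imaging gave the percent of cells positive for viral envelope protein, ranked by infection, and a nuclear count of cells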
Scale: infection score: higher = more virus-infected cells
Active means: 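Low infection ranks in the two replicates (chance level up to 0.065) followed by a retest with a 1.5-fold or larger significant decrease, p below 0.05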
Calls: active = confirmed: knock-down lowers infection; inactive = not picked or not confirmed

{"predicted target": "Nepl11", "dsRNA": "DRSC12333", "infection score, replicate 1": 2.55}
{"predicted target": "CG17168", "dsRNA": "DRSC20904", "infection score, replicate 1": 13.5}
{"predicted target": "CG17168", "dsRNA": "DRSC29872", "infection score, replicate 1": 46.1}
{"predicted target": "PGRP-SC2", "dsRNA": "DRSC06481", "infection score, replicate 1": 17.5}
{"predicted target": "PGRP-SC2", "dsRNA": "DRSC25449", "infection score, replicate 1": 1.73}
{"predicted target": "Sas-6", "dsRNA": "DRSC15061", "infection score, replicate 1": 3.69}
{"predicted target": "Cpr49Ag", "dsRNA": "DRSC07203", "infection score, replicate 1": 6.6}
{"predicted target": "Cpr49Ag", "dsRNA": "DRSC28612", "infection score, replicate 1": 12.5}
{"predicted target": "CG6290", "dsRNA": "DRSC19979", "infection score, replicate 1": 2.19}
{"predicted target": "CG6290", "dsRNA": "DRSC25483", "infection score, replicate 1": 9.83}
{"predicted target": "CG4593", "dsRNA": "DRSC18374", "infection score, replicate 1": 2.62}
{"predicted target": "CG4593", "dsRNA": "DRSC29173", "infection score, replicate 1": 15.1}

Reformatted: 2 of the entries above.
predicted target | dsRNA | infection score, replicate 1
PGRP-SC2 | DRSC06481 | 17.5
PGRP-SC2 | DRSC25449 | 1.73
